Measured data: PubChem BioAssay AID504761 (Drosophila RNAi Screening Center, 2011)
The screen tested about 22,000 reagents; shown is a random part of those with a known target gene and a result. Over the whole deposit, 116 (0.52%) got an active call. 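Calls depend on retest data that are not deposited; infection was ranked per plate without normalising between plates; the unit of the infection score is not given.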 Entries without a mark were called inactive. Reagents against one gene are numbered here. A plus sign joins genes that one reagent is predicted to hit. Not all columns of the deposit are shown. Not stated in the record: the amount of reagent, the time to read-out.

- Screen: 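Genome-wide fly cell screen for genes dengue virus requires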 (primary screen)
- System: D.Mel-2 cells from Drosophila
- Reagent: long dsRNA against Drosophila genes
- Conditions: infection with dengue virus type 2; dose and infection time not stated
- Measurement: 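Per well on two replicate plates, imaging gave the percent of cells positive for viral envelope protein, ranked by infection, and a nuclear count of cells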
- Direction: infection score: higher = more virus-infected cells
- Hit rule: 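Low infection ranks in the two replicates (chance level up to 0.065) followed by a retest with a 1.5-fold or larger significant decrease, p below 0.05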
- Calls: active = confirmed: knock-down lowers infection; inactive = not picked or not confirmed

infection score, replicate 1, by gene and reagent
Papss (PAPS synthetase): #1 1.85; #2 10.1
Cad89D (Cadherin 89D): #1 2.79
TfIIA-L (Transcription factor IIA L): #1 3.98
sim (single-minded): #1 13.6; #2 13.9
tra (transformer): #1 2.88
Dus1 (Dihydrouridine synthase 1): #1 3.52

2 consecutive records already listed, quoted:
infection score, replicate 1, by gene and reagent
Cad89D (Cadherin 89D): #1 2.79
TfIIA-L (Transcription factor IIA L): #1 3.98

More results follow:
infection score, replicate 1, by gene and reagent
Uhg3 (U snoRNA host gene 3): #1 1.54
CG5013: #1 5.51
snoRNA:Me18S-C1280 (retired record): #1 11.3
RpL9 (Ribosomal protein L9): #1 4.83
CG33463: #1 4.67; #2 20.1
fabp + sea: #1 23.6; #2 8.87
Fbl6 (F-box and leucine-rich repeat protein 6): #1 8.79; #2 5.06
cni (cornichon): #1 1.7
Cks30A (Cyclin-dependent kinase subunit 30A): #1 15.3
Ctr9: #1 13; #2 31.2
kek2 (kekkon 2): #1 4.18; #2 19
